# Earlier results in article PMC12797016.
# Protein sequences, listed by entry. Tags and fused reporters are not part of them.
# UniProt P63167, whole entry: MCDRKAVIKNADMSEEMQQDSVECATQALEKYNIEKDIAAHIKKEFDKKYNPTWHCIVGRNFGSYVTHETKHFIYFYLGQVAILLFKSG
# Target: LC8 (dynein light chain, DYNLL1/DYNLL2) (Homo sapiens) (UniProt P63167)
# Assay: ITC
# Conditions: cited from earlier work
row,Substance,Kd [µM]
1,Bdbv,0.82
2,Bomv,27.9
3,Tafv,4.29
